According to PubChem BioAssay AID435030 (The Scripps Research Institute Molecular Screening Center, 2010):
The list shows a part of the results, in another mix than the full data. Active and inactive are the calls of the source. Cut-off read from the data, not from the text of the source: active = inhibition above about 12%; inactive = the rest.

Assay: reduced growth of AddAB-expressing E. coli cells – absorbance, AddAB inhibitor project, primary screen (AID 435030);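 note: 0% = vehicle wells of infected cells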
Settings: E. coli expressing H. pylori AddAB, at 11.9 µM, active compounds read high

Row | SMILES | inhibition
1 | CC(C)(C)C(=O)NC(Sc1ccccc1)C(Cl)(Cl)Cl (stereo unspecified) | inactive: 3.07%
2 | O=P1(Nc2nc3ccc(Cl)cc3s2)COc2ccccc2O1 (stereo unspecified) | inactive: 4.3%
3 | CCOc1ccc(C2=NCC(CBr)S2)cc1 (stereo unspecified) | inactive: -0.93%
4 | CC(=O)Nc1ccc([As](=O)(O)O)c(O)c1 | inactive: 1.19%
5 | CC(=O)Nc1ccc(Oc2c([N+](=O)[O-])cc([N+](=O)[O-])cc2[N+](=O)[O-])cc1 | inactive: -2.06%
6 | CC(=O)c1ccc(N2CC2c2ccncc2)cc1 (stereo unspecified) | inactive: 1.87%
7 | Cc1ccccc1CN(C)C(=O)COC(=O)C(O)(c1ccccc1)c1ccccc1 | inactive: 2.63%
8 | C[C@@H]1C=CCP(=O)(Oc2ccccc2)O1 (stereo partly specified) | inactive: 2.92%
9 | C[C@H]1OP(=O)(Oc2ccccc2)C[C@@H]2O[C@@H]21 (stereo partly specified) | inactive: 1.43%
10 | CCNC(=S)/N=C(\N)N[N+](=O)[O-] | inactive: 3.73%
11 | O=C(NC1CCS(=O)(=O)C1)NP(=S)(Oc1ccccc1)Oc1ccccc1 (stereo unspecified) | inactive: -0.68%
12 | c1ccc(-c2nn[nH]n2)c(-c2nn[nH]n2)c1 | inactive: 2.31%
13 | Cc1ccc(NP(=O)(Oc2cccc(C)c2)Oc2cccc(C)c2)nc1 | inactive: 4.12%
14 | CCOC(=O)NC(Sc1ccccc1)C(Cl)(Cl)Cl (stereo unspecified) | inactive: 3.32%
15 | Cc1ccccc1OP(=O)(Nc1ccccn1)Oc1ccccc1C | inactive: -0.25%
16 | CC(NC(=O)COC(=O)C(O)(c1ccccc1)c1ccccc1)c1ccccc1 (stereo unspecified) | inactive: 0.17%
17 | CN(C)C(=O)Oc1noc2ccccc12 | inactive: 3.35%
18 | COC(=O)c1cc2c(s1)N=C(c1ccccc1)N(C)P2(=O)N1CCOCC1 (stereo unspecified) | inactive: 1.92%
19 | CC(=O)NC(SC(=S)N(CC(C)C)CC(C)C)C(Cl)(Cl)Cl (stereo unspecified) | active: 19%
20 | Cc1ccc(OP(=O)(Nc2ccccn2)Oc2ccc(C)cc2)cc1 | inactive: 3.64%
21 | O=C(OC1CN2CCC1CC2)c1ccccc1 (stereo unspecified) | inactive: 0.41%
22 | CCC(=O)N1C2C3N(C(=O)CC)C1C1N(C(=O)CC)C(C(N1C(=O)CC)N3C(=O)CC)N2C(=O)CC | inactive: 0.84%
23 | O=P(Nc1nc2ccccc2s1)(c1ccccc1)c1ccccc1 | inactive: -0.6%
24 | C[C@H]1OP(=O)(Oc2ccccc2)[C@H](O)[C@H](O)[C@H]1N=[N+]=[N-] (stereo partly specified) | inactive: 3.96%
25 | O=P(Nc1ccccn1)(c1ccc(Br)cc1)c1ccc(Br)cc1 | inactive: 4.91%
26 | CN(C)C1(CNC(=O)c2ccc(Cl)c(S(N)(=O)=O)c2)CCCCC1 | inactive: -1.07%

Row | SMILES | inhibition
27 | Nc1ccc([As](=O)(O)c2ccc([N+](=O)[O-])cc2)cc1 | inactive: -2.17%
28 | C(Cc1nn[nH]n1)Cc1nn[nH]n1 | inactive: 0.82%
29 | O=C(OC1CN2CCC1CC2)c1cccc(Cl)c1 (stereo unspecified) | inactive: 3.56%
30 | O=[N+]([O-])c1ccc(O)c(/C=N/Nc2ccc([N+](=O)[O-])cc2[N+](=O)[O-])c1 | inactive: 2.17%
31 | CC(=O)NC(SC(=S)N(C)C)C(Cl)(Cl)Cl (stereo unspecified) | inactive: -0.16%
32 | O=[N+]([O-])c1ncn(CCn2cnc([N+](=O)[O-])n2)n1 | inactive: 0.77%
33 | O=[As](O)(c1ccccc1)c1ccc(O)cc1 | inactive: 0.68%
34 | c1nnnn1CCn1cnnn1 | inactive: 5.79%
35 | CC(C)C(=O)NC(Sc1ccccc1)C(Cl)(Cl)Cl (stereo unspecified) | inactive: 0.97%
36 | O=P(Nc1nccs1)(c1ccccc1)c1ccccc1 | inactive: -1.88%
37 | O=[N+]([O-])c1cccc2n[nH]nc12 | active: 71.6%
38 | CC(=O)N1C2C3N(C(C)=O)C1C1N(C(C)=O)C(C(N1C(C)=O)N3C(C)=O)N2C(C)=O | inactive: 1.56%
39 | Cc1ccc(NP(=O)(Oc2ccccc2)Oc2ccccc2)nc1 | inactive: 2.57%
40 | CCc1nc2c(n1)c1c(non1O)c1c2no[n+]1[O-] | inactive: 2.61%
41 | O=[N+]([O-])c1cc([N+](=O)[O-])c(CCNc2ccccc2)c([N+](=O)[O-])c1 | inactive: 0.58%
42 | COc1ccc(C2=NCC(CBr)S2)cc1 (stereo unspecified) | inactive: 0.17%
43 | CC(C)=N/N=C(\N)N[N+](=O)[O-] | inactive: 2.07%
44 | CN(C)C(=O)OCCc1n(C)cc[n+]1C | inactive: 2.06%
45 | CC1CCN(C(=O)Oc2c(Cl)cc(Cl)c3cccnc23)CC1 | inactive: 1.29%
46 | Nc1ccc([As](=O)(O)c2ccc(N)cc2)cc1 | inactive: 1.45%
47 | C[N+]1=C2C=CC=CC=C2SC12C([N+](=O)[O-])=CC([N+](=O)[O-])=C[C-]2[N+](=O)[O-] (stereo unspecified) | inactive: 4.49%
48 | CCN(/C(=N/P(=O)(N1CCOCC1)N1CCOCC1)N1CCOCC1)c1ccc(OC)cc1 | inactive: 2.42%
49 | O=C(Nc1cc([As](=O)(O)O)ccc1O)c1ccccc1 | inactive: -0.08%
50 | O=[N+]([O-])c1cccc(NC2=NCC(CBr)S2)c1 (stereo unspecified) | inactive: -1.03%
51 | CC(C)(C)C(=O)NC(Sc1ccncn1)C(Cl)(Cl)Cl (stereo unspecified) | inactive: 2.37%
52 | O=[N+]([O-])c1ncn(CCn2ncnc2[N+](=O)[O-])n1 | inactive: -0.69%

Row | SMILES | inhibition
53 | CCOP(=O)(Nc1ccccc1)OCC | inactive: 0%
54 | Cc1cc(SC(NC(=O)c2ccc(F)cc2)C(Cl)(Cl)Cl)ncn1 (stereo unspecified) | inactive: 1.04%
55 | Cc1ccc(NP(=O)(Oc2ccccc2F)Oc2ccccc2F)nc1 | inactive: 1.96%
56 | CN(C(=O)Cc1ccc(Cl)c(Cl)c1)[C@H]1CCCC[C@@H]1N1CCCC1 | inactive: -0.08%
57 | O=C(O)c1ccccc1[As](=O)(O)O | inactive: -1.73%
58 | CC(=O)Nc1ccc([As](=O)(O)O)cc1 | inactive: -1.23%
59 | O=P(Nc1nc2ccc(Cl)cc2s1)(c1ccccc1)c1ccccc1 | inactive: 1.63%
60 | CCN(N=Nc1nonc1N)c1nonc1N | inactive: 3.18%
61 | O=[N+]([O-])c1cc([N+](=O)[O-])c(CCN2CCOCC2)c([N+](=O)[O-])c1 | inactive: -1.07%
62 | COc1ccccc1OP(=O)(Nc1ccc(C)cn1)Oc1ccccc1OC | inactive: 4.24%
63 | Cc1ccc(OP(=O)(Nc2nccs2)Oc2ccc(C)cc2)cc1 | inactive: -2.23%
64 | Clc1ccc(Cl)c(NC2=NCC(CBr)S2)c1 (stereo unspecified) | inactive: 1.88%
65 | CN1CCCC(OC(=O)C(c2ccccc2)c2ccccc2)C1 (stereo unspecified) | inactive: 0.08%
66 | NC(=O)c1cc([N+](=O)[O-])cc([N+](=O)[O-])c1N | inactive: 0.85%
67 | CN(C(=O)Cc1ccc(Cl)c(Cl)c1)[C@H]1CCCC[C@H]1N1CCCC1 | inactive: -2.93%
68 | Cc1ccc(N/C(=N/P(=O)(N2CCOCC2)N2CCOCC2)N2CCOCC2)cc1 | inactive: 3.49%
69 | CC(C)CC(=O)NC(Sc1ccc(Cl)cc1)C(Cl)(Cl)Cl (stereo unspecified) | inactive: 3.25%
70 | Nc1cc(N)c2nonc2c1[N+](=O)[O-] | inactive: 2.66%
71 | Oc1ccccc1CNc1ccccn1 | inactive: 2.39%
72 | Cc1c2non([O-])c-2c(C)[n+](=O)[n+]1[O-] | inactive: 10.6%
73 | O=C(NC(Sc1ccncn1)C(Cl)(Cl)Cl)c1ccccc1 (stereo unspecified) | inactive: -0.26%
74 | COc1ccc2nc(NP(=O)(c3ccccc3)c3ccccc3)sc2c1 | inactive: -2.59%
75 | COc1cc(I)ccc1[As](=O)(O)O | inactive: 0.17%
76 | O=C(OC1CN2CCC1CC2)C12CC3CC(CC(C3)C1)C2 (stereo unspecified) | inactive: 2.59%
77 | Cc1cc(=O)[nH]c(N[N+](=O)[O-])n1 | inactive: 2.47%
78 | Cc1c2c(nc3ccccc13)SC(C(Cl)Cl)C2 (stereo unspecified) | inactive: -0.75%

Row | SMILES | inhibition
79 | COc1ccc(N/C(=N/P(=O)(N2CCOCC2)N2CCOCC2)N2CCOCC2)cc1 | inactive: 4.45%
80 | Cc1ccc2nc3c(c(C)c2c1)CC(C(Cl)Cl)S3 (stereo unspecified) | inactive: 0.9%
81 | Cc1ccc(OP(=O)(Nc2ccc([N+](=O)[O-])cn2)Oc2ccc(C)cc2)cc1 | inactive: -0.91%
82 | C[As](=O)(O)c1cccc(C(=O)O)c1 | inactive: -0.81%
83 | O=[As](O)(c1ccc(O)cc1)c1ccccc1O | inactive: 1.18%
84 | COc1cc(C(=O)NCC2(N3CCOCC3)CCCCC2)ccc1OCC(C)C | inactive: 0.94%
85 | CCN(CC)C(=S)SC(NC=O)C(Cl)(Cl)Cl (stereo unspecified) | inactive: 5.26%
86 | CC(C)NC(=O)NP(=O)(Oc1ccccc1)Oc1ccccc1 | inactive: 2.22%
87 | O=[N+]([O-])c1cc([N+](=O)[O-])c(-c2ccn[nH]2)s1 | active: 26.6%
88 | CC(C)c1ccc(OP(=O)(Nc2ccccn2)Oc2ccccc2F)cc1 (stereo unspecified) | inactive: -0.59%
89 | ClCCSc1nnc(-c2cccnc2)o1 | inactive: 0.9%
90 | Cc1cc(SC(NC(=O)c2ccccc2)C(Cl)(Cl)Cl)nc(C(C)C)n1 (stereo unspecified) | inactive: 1.15%
91 | CCOC(=O)Nc1ccc([As](=O)(O)O)c(O)c1 | inactive: 3.97%
92 | O=P(Nc1ccccn1)(c1cccc2ccccc12)c1cccc2ccccc12 | inactive: 1.29%
93 | Cc1cc(SC(NC=O)C(Cl)(Cl)Cl)ncn1 (stereo unspecified) | inactive: 2.75%
94 | CCOC(=O)Nc1cccc([As](=O)(O)O)c1 | inactive: 1.4%
95 | O=C(COc1ccccc1)OC1CN2CCC1CC2 (stereo unspecified) | inactive: 0.34%
96 | O=C(Nc1ccncc1[N+](=O)[O-])c1ccc([N+](=O)[O-])cc1[N+](=O)[O-] | inactive: 1.62%
97 | COP1(=S)c2c(C)nn(CCC#N)c2N=C(c2ccc(F)cc2)N1C (stereo unspecified) | inactive: 2.74%
98 | CCC(C)N(CC(C)C)C(=S)SC(NC(C)=O)C(Cl)(Cl)Cl (stereo unspecified) | inactive: 5.92%
99 | CCOC(=O)c1ccc(NC(=O)C(C)(CCl)SC)cc1 (stereo unspecified) | inactive: 1.6%
100 | O=C(OC1CN2CCC1CC2)c1cccc([N+](=O)[O-])c1 (stereo unspecified) | inactive: 4.48%
101 | Clc1n[nH]nc1-c1nn[nH][15n]1 | inactive: 0.16%
